PMC6118392, “VapC proteins from Mycobacterium tuberculosis share ribonuclease sequence specificity but differ in regulation and toxicity” (PLoS ONE, 2018)
The exact form of at least one protein or probe is not confirmed. At least one verdict rests on a figure or table, not on a statement of the authors.

System: VapB29 + VapC29
Assay: competition with a labelled probe
Conditions: recombinant protein; protein details: C-terminal His; label: 3' DIG-ddUTP

## GGTGAGCGTCGGCGCGCGCATCACGATGCAGCGATGTTAGGATGAGGCGG (double strand) [Oligo 5 (50 bp vapBC29 promoter, control)]
  binding result: binds
